Laboratory results reported in patent US20250296984A1, “THERAPEUTIC AND DIAGNOSTIC AGENTS AND USES THEREOF” (priority 2022, published 2025).
Numbering of substitutions follows the chain as printed.

B1: 13-1C10-1G9: mouse hybridoma subclone antibody against US28 ECD3 Peptide-1 and -2; sequenced (antibody)
heavy: EVKLVESGGGLVKPGGSLKLSCAASGFTFSSYAMSWVRQTPEKRLEWVASISSGGSTYYPDSVKGRFTISRDNARNILYLQMSSLRSEDTAMYYCARGGSTMITTGLGFAYWGQGTLVTVSAAKTTPPSVYPLAPGSAAQTNSMVTLGCLVKGYFPEPVTVTWNSGSLSSGVHTFPAVLQSDLYTLSSSVTVPSSTWPSETVTCNVAHPASSTKVDKKIVPRDCGCKPCICTVPEVSSVFIFPPKPKDVLTITLTPKVTCVVVDISKDDPEVQFSWFVDDVEVHTAQTQPREEQFNSTFRSVSELPIMHQDWLNGKEFKCRVNSAAFPAPIEKTISKTKGRPKAPQVYTIPPPKEQMAKDKVSLTCMITDFFPEDITVEWQWNGQPAENYKNTQPIMDTDGSYFIYSKLNVQKSNWEAGNTFTCSVLHEGLHNHHTEKSLSHSPGK
light: QIVLTQSPAIMSASPGEKVTMTCSASSSVSYMHWYQQKSGTSPKRWIYDTSKLASGVPARFSGSGSGTSYSLTISSMEAEDAATYYCQQWSSNPPLTFGAGTKLELKRADAAPTVSIFPPSSEQLTSGGASVVCFLNNFYPKDINVKWKIDGSERQNGVLNSWTDQDSKDSTYSMSSTLTLTKDEYERHNSYTCEATHKTSTSPIVKSFNRNEC
B2: 14-4E4-1E8: mouse hybridoma subclone antibody against US28 ECD3 Peptide-1 and -2; sequenced (antibody)
heavy: EVKLVESGGDLVKPGGSLKLSCAASGFTFSSYAMSWVRQTPEKRLEWVASISSGGRTYYPDSVKGRFTISRDNARNILYLQMSSLRSEDTAIYYCARGGTRHSYGNGFDYWGQGTTLTVSSAKTTPPSVYPLAPGSAAQTNSMVTLGCLVKGYFPEPVTVTWNSGSLSSGVHTFPAVLQSDLYTLSSSVTVPSSTWPSETVTCNVAHPASSTKVDKKIVPRDCGCKPCICTVPEVSSVFIFPPKPKDVLTITLTPKVTCVVVDISKDDPEVQFSWFVDDVEVHTAQTQPREEQFNSTFRSVSELPIMHQDWLNGKEFKCRVNSAAFPAPIEKTISKTKGRPKAPQVYTIPPPKEQMAKDKVSLTCMITDFFPEDITVEWQWNGQPAENYKNTQPIMDTDGSYFIYSKLNVQKSNWEAGNTFTCSVLHEGLHNHHTEKSLSHSPGK
light: B1 light with T5S, A9T, T50S, S91T, L96I

Target: T1, Peptide-2 […] (SEQ ID NO: 7), US28 ECD3 4D variant (Human cytomegalovirus)
T1 construct: made in house; host or cells: chemical synthesis
Experiment: ELISA, binding to Bio-Peptide-2
Set-up: species or system HCMV
Details: 4D variant peptide
Protocol: Microtiter plate wells were coated with 100 μl of the solution containing: (i) Bio-Peptide-N; or (ii) Bio-Peptide-1 and Bio-Peptide-2; at a concentration of between 1-10 μg/ml in coating buffer, consisting of Na2CO3, 1.5 g and NaHCO3, 2.93 g in 1 L of distilled water in pH 9.6, and then incubated for 1-2 hours at room temperature. The plate was washed 3 times in wash buffer consisting of PBS containing 0.05% v/v Tween-20 and blotted with paper towels thereafter. 150 μl of blocking solution containing Phosphate buffered saline (PBS) containing 1% w/v BSA, was added to each well and the plate was incubated for 2 hours at 37° C. The wells were washed 4 times in wash buffer and blotted on paper towels after the last wash. 100 μl of antibody dilution was added to each well and the plate was incubated for 1 hour at 37° C. and thereafter washed 3 times in wash buffer. 100 μl enzyme-conjugated secondary antibody (appropriately diluted in wash buffer) was added to each well and the plate was incubated for 1 hour at 37° C. The wells were then again washed 3 times in wash buffer and blotted with paper towels after the last wash. […] The absorbance values were read immediately at the appropriate wavelength and the data analyzed by Cmax Plus, Molecular Devices, San Jose, CA 95134, USA, […]

Molecule	Absorbance values, Peptide 2
B1	3.065
B2	2.871
